Test results taken from PubChem BioAssay AID1822 (The Scripps Research Institute Molecular Screening Center, 2009).
The list shows a part of the results, in another mix than the full data. Active and inactive are the calls of the source.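 Rule for the calls: active = inhibition above the campaign mean inhibition over all tested compounds plus 3 SD (cut at about 28% in these data); inactive = the rest.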

tested on: M18 aspartyl aminopeptidase (Plasmodium falciparum 3D7); experiment: PfM18AAP inhibitors, malaria aminopeptidase, primary screen, biochemical, QFRET, recombinant enzyme (AID 1822); conditions: H-Glu-NHMec fluorogenic cleavage, at 7.35 µM, active compounds read high;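 note: 0% = plate median of test compound wells and 100% = 2 mM ZnCl2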

Question: With CP(=O)(OC12CC3CC(CC(C3)C1)C2)OC12CC3CC(CC(C3)C1)C2 as the molecule, how does the inhibition read?
Answer: Its inhibition is inactive: -1.26%.

Question: Which inhibition does the source give for CCOC(=O)c1ccc(NP(C)(=O)Oc2ccc(Cl)cc2)cc1 (stereo not drawn) here?
Answer: Its inhibition is inactive: -2.57%.

Question: With CP(=O)(Oc1ccccc1)N1CCOC1=O (stereo not drawn) as the molecule, how does the inhibition read?
Answer: Its inhibition is inactive: -8.72%.

Question: CCc1ccc(OP(C)(=O)Nc2cccnc2)cc1 (stereo not drawn) was tested. Which inhibition did it give?
Answer: The inhibition was inactive: -8.1%.

Question: With COc1ccccc1OP(C)(=O)Nc1c(C)n(C)n(-c2ccccc2)c1=O (stereo not drawn) as the molecule, how does the inhibition read?
Answer: The inhibition was inactive: -17.7%.

Question: For O=C(OCCCN1CCCC1)C(O)(c1ccccc1)C1CCCCC1 (stereo not drawn), which inhibition is on record?
Answer: The inhibition was inactive: -6.87%.

Question: With CCN(CC)CC(O)COC(=O)C(O)(c1ccccc1)C1CCCCC1 (stereo not drawn) as the molecule, how does the inhibition read?
Answer: The inhibition was inactive: 3.1%.

Question: With COc1ccc(OP(C)(=O)Nc2ccc(Br)cc2)cc1 (stereo not drawn) as the molecule, how does the inhibition read?
Answer: Its inhibition is inactive: -12.4%.

Question: With CN(C)C(=O)c1c([N+](=O)[O-])cc([N+](=O)[O-])cc1[N+](=O)[O-] as the molecule, how does the inhibition read?
Answer: Its inhibition is active: 29%.

Question: CP(=O)(Nc1ccc(Cl)cc1)Oc1ccc(F)cc1 (stereo not drawn) was tested. Which inhibition did it give?
Answer: Its inhibition is inactive: -0.86%.

Question: Which inhibition does the source give for CC(C)(C)c1ccc(OP(C)(=O)O)cc1 here?
Answer: Its inhibition is inactive: 5.38%.

Question: With COc1ccccc1OP(C)(=O)Nc1ccccc1Br (stereo not drawn) as the molecule, how does the inhibition read?
Answer: Its inhibition is inactive: -3.58%.

Question: Which inhibition does the source give for CN(C)CCOC(=O)C(O)(c1ccccc1)C1CCCC1 (stereo not drawn) here?
Answer: Its inhibition is inactive: -8.85%.

Question: For COc1ccc(OP(C)(=O)Nc2ccccn2)cc1 (stereo not drawn), which inhibition is on record?
Answer: The inhibition was inactive: 1.22%.

Question: With COc1ccccc1OP(C)(=O)Nc1ccc(Br)cc1 (stereo not drawn) as the molecule, how does the inhibition read?
Answer: Its inhibition is inactive: -12.8%.

Question: With CCc1ccc(OP(C)(=O)O)cc1 as the molecule, how does the inhibition read?
Answer: The inhibition was inactive: 1.24%.

Question: For CP(=O)(Nc1ccccn1)Oc1ccccc1 (stereo not drawn), which inhibition is on record?
Answer: Its inhibition is inactive: 1.43%.

Question: How did the inhibition turn out when COc1ccccc1OP(C)(=O)Nc1ccc(C)cc1C (stereo not drawn) was run?
Answer: Its inhibition is inactive: -10.7%.

Question: For O=[N+]([O-])c1cc([N+](=O)[O-])c(Nc2ccccn2)c([N+](=O)[O-])c1, which inhibition is on record?
Answer: The inhibition was inactive: -1.13%.

Question: For Cc1c(NP(C)(=O)Oc2ccc(C(C)C)cc2)c(=O)n(-c2ccccc2)n1C (stereo not drawn), which inhibition is on record?
Answer: Its inhibition is inactive: 4.01%.

Question: How did the inhibition turn out when COc1ccc(OP(C)(=O)Nc2ccccc2Br)cc1 (stereo not drawn) was run?
Answer: Its inhibition is inactive: -3%.

Question: Which inhibition does the source give for COc1ccccc1OP(C)(=O)Nc1ccc(C)c(C)c1 (stereo not drawn) here?
Answer: Its inhibition is inactive: -2.37%.

Question: Which inhibition does the source give for Cc1cc(C)cc(OP(C)(=O)Nc2cccc(C(F)(F)F)c2)c1 (stereo not drawn) here?
Answer: The inhibition was inactive: 1.23%.

Question: For CP(=O)(OCCOc1ccccc1)OCCOc1ccccc1, which inhibition is on record?
Answer: The inhibition was inactive: -2.5%.

Question: With Cc1nc2ccc3ccccc3c2o1.O=[N+]([O-])c1cc([N+](=O)[O-])c(O)c([N+](=O)[O-])c1 as the molecule, how does the inhibition read?
Answer: The inhibition was active: 32.6%.

Question: For COc1ccc(OP(C)(=O)Nc2ccc(SC(F)(F)F)cc2)cc1 (stereo not drawn), which inhibition is on record?
Answer: Its inhibition is inactive: 2.04%.

Question: CCOC(=O)c1ccc(NP(C)(=O)Oc2ccc(F)cc2)cc1 (stereo not drawn) was tested. Which inhibition did it give?
Answer: The inhibition was inactive: -11.2%.

Question: How did the inhibition turn out when O=[N+]([O-])c1cc([N+](=O)[O-])c(OC2CCCCC2O)c([N+](=O)[O-])c1 (stereo not drawn) was run?
Answer: Its inhibition is inactive: 5.74%.

Question: With CCCCCOc1ccc(NP(C)(=O)Oc2ccc(Cl)cc2Cl)cc1 (stereo not drawn) as the molecule, how does the inhibition read?
Answer: Its inhibition is inactive: -10%.

Question: With CP(=O)(Nc1ccccc1)Oc1ccc(F)cc1 (stereo not drawn) as the molecule, how does the inhibition read?
Answer: The inhibition was inactive: -0.98%.

Question: With CCN(CC)CCCOC(=O)C(O)(c1ccccc1)C1CCCCC1 (stereo not drawn) as the molecule, how does the inhibition read?
Answer: The inhibition was inactive: -5.09%.

Question: Which inhibition does the source give for CC(C)c1ccc(OP(C)(=O)Nc2ccc(SC(F)(F)F)cc2)cc1 (stereo not drawn) here?
Answer: The inhibition was inactive: 1.48%.

Question: Which inhibition does the source give for CP(=O)(Nc1ccccc1F)Oc1ccccc1 (stereo not drawn) here?
Answer: The inhibition was inactive: 11.1%.

Question: With O=C(OCCN1CCN(CCOCc2ccccc2)CC1)C(O)(c1ccccc1)c1ccccc1 as the molecule, how does the inhibition read?
Answer: Its inhibition is inactive: 3.65%.

Question: O=C(OC1CN2CCC1CC2)c1ccc([N+](=O)[O-])cc1 (stereo not drawn) was tested. Which inhibition did it give?
Answer: Its inhibition is inactive: -1.21%.

Question: Which inhibition does the source give for CCOP(C)(=S)SCC(=O)NC(C)(CC)C(=O)O (stereo not drawn) here?
Answer: The inhibition was inactive: 8.9%.

Question: CP(=O)(Nc1ccc(SC(F)(F)F)cc1)Oc1ccc(F)cc1 (stereo not drawn) was tested. Which inhibition did it give?
Answer: The inhibition was inactive: -11.4%.

Question: How did the inhibition turn out when Cc1ccccc1NP(C)(=O)Nc1ccccc1C was run?
Answer: Its inhibition is inactive: 0.75%.

Question: CP(=O)(Nc1ccc2c(c1)OCCO2)Oc1ccccc1 (stereo not drawn) was tested. Which inhibition did it give?
Answer: The inhibition was inactive: -0.27%.

Question: COc1ccc(NP(C)(=O)Oc2ccccc2OC)cc1 (stereo not drawn) was tested. Which inhibition did it give?
Answer: Its inhibition is inactive: -3.74%.

Question: How did the inhibition turn out when CN(C)CCOC(=O)C(O)(c1ccccc1)C1CCCCC1 (stereo not drawn) was run?
Answer: Its inhibition is inactive: -8.96%.

Question: COc1ccc(OP(C)(=O)Nc2cccc(Br)c2)cc1 (stereo not drawn) was tested. Which inhibition did it give?
Answer: Its inhibition is inactive: -3.16%.

Question: Cc1cc(-c2cccc3ccccc23)c(C)cn1.O=[N+]([O-])c1cc([N+](=O)[O-])c(O)c([N+](=O)[O-])c1 was tested. Which inhibition did it give?
Answer: The inhibition was inactive: 2.38%.

Question: Which inhibition does the source give for O=[N+]([O-])c1cc([N+](=O)[O-])c(NCC2CCS(=O)(=O)C2)c([N+](=O)[O-])c1 (stereo not drawn) here?
Answer: Its inhibition is inactive: 8.72%.

Question: Which inhibition does the source give for O=[N+]([O-])c1ccc(OP2(=O)COCCO2)cc1 (stereo not drawn) here?
Answer: The inhibition was inactive: 0.21%.

Question: With O=[N+]([O-])c1cc([N+](=O)[O-])c(Nc2nnnn2CCO)c([N+](=O)[O-])c1 as the molecule, how does the inhibition read?
Answer: The inhibition was inactive: 1.75%.

Question: With CCOC(=O)C(CC)C1=NC(C)(C)Cc2ccccc21.O=[N+]([O-])c1cc([N+](=O)[O-])c(O)c([N+](=O)[O-])c1 (stereo not drawn) as the molecule, how does the inhibition read?
Answer: Its inhibition is inactive: 2.19%.

Question: How did the inhibition turn out when CP(=O)(Nc1ccc(SC(F)(F)F)cc1)Oc1ccccc1 (stereo not drawn) was run?
Answer: The inhibition was inactive: -1.57%.

Question: With CCCOc1ccc(NP(C)(=O)Oc2ccc(Cl)cc2)cc1 (stereo not drawn) as the molecule, how does the inhibition read?
Answer: The inhibition was inactive: 0.09%.

Question: CN1CCCCC1COC(=O)C1(O)c2ccccc2CCc2ccccc21 (stereo not drawn) was tested. Which inhibition did it give?
Answer: Its inhibition is inactive: -4.24%.

Question: How did the inhibition turn out when COc1ccccc1OP(C)(=O)Nc1c(C)cccc1C (stereo not drawn) was run?
Answer: Its inhibition is inactive: 0.5%.

Question: Which inhibition does the source give for O=[N+]([O-])c1cc([N+](=O)[O-])c(-n2nnc3ccccc32)c([N+](=O)[O-])c1 here?
Answer: Its inhibition is inactive: 9.53%.

Question: For Cc1nc2ccc3ccccc3c2s1.O=[N+]([O-])c1cc([N+](=O)[O-])c(O)c([N+](=O)[O-])c1, which inhibition is on record?
Answer: Its inhibition is inactive: 11.2%.

Question: How did the inhibition turn out when Cc1cc(C)cc(OP(C)(=O)Nc2ccc(C)cc2C)c1 (stereo not drawn) was run?
Answer: Its inhibition is inactive: -3.12%.

Question: Which inhibition does the source give for CCOC(=O)c1ccc(NP(C)(=O)Oc2cc(C)cc(C)c2)cc1 (stereo not drawn) here?
Answer: Its inhibition is inactive: -12.3%.

Question: With COc1ccccc1OP(C)(=O)Nc1cccc(Br)c1 (stereo not drawn) as the molecule, how does the inhibition read?
Answer: Its inhibition is inactive: 8.46%.

Question: CP(=O)(Nc1cccc(Br)c1)Oc1ccccc1 (stereo not drawn) was tested. Which inhibition did it give?
Answer: Its inhibition is inactive: 0.12%.

Question: How did the inhibition turn out when Cc1cc(C)cc(OP(C)(=O)Nc2ccccn2)c1 (stereo not drawn) was run?
Answer: The inhibition was inactive: -0.84%.

Question: With Cc1ccc(C)c(NP(C)(=O)Oc2ccccc2)c1 (stereo not drawn) as the molecule, how does the inhibition read?
Answer: The inhibition was inactive: 2.43%.

Question: O=C(O)c1cccc(Nc2c([N+](=O)[O-])cc([N+](=O)[O-])cc2[N+](=O)[O-])c1 was tested. Which inhibition did it give?
Answer: Its inhibition is inactive: -0.55%.

Question: With CC1=NCCc2c1[nH]c1ccccc21.O=[N+]([O-])c1cc([N+](=O)[O-])c(O)c([N+](=O)[O-])c1 as the molecule, how does the inhibition read?
Answer: The inhibition was inactive: 9.31%.

Question: How did the inhibition turn out when CC(C)(C)c1ccc(OP(C)(=O)Nc2ccc(SC(F)(F)F)cc2)cc1 (stereo not drawn) was run?
Answer: The inhibition was inactive: 3.89%.

Question: For Cc1cccc(C)c1OP(C)(N)=O (stereo not drawn), which inhibition is on record?
Answer: The inhibition was inactive: 0.26%.

Question: Which inhibition does the source give for O=[N+]([O-])c1ccc2c(c1)C=Nc1ccccc1O2 here?
Answer: Its inhibition is inactive: 5.07%.

Question: How did the inhibition turn out when COc1ccccc1OP(C)(=O)Nc1cc(Cl)ccc1C (stereo not drawn) was run?
Answer: Its inhibition is inactive: -10.5%.

Question: Which inhibition does the source give for COc1ccc(OP(C)(=O)Nc2cccc(F)c2)cc1 (stereo not drawn) here?
Answer: Its inhibition is inactive: 0.6%.

Question: With Cc1cc(C)cc(OP(C)(N)=O)c1 (stereo not drawn) as the molecule, how does the inhibition read?
Answer: Its inhibition is inactive: -2.98%.

Question: For CCOC(=O)c1ccc(NP(C)(=O)Oc2ccccc2)cc1 (stereo not drawn), which inhibition is on record?
Answer: Its inhibition is inactive: -1.7%.

Question: With COc1ccccc1OP(C)(=O)Nc1ccc(C)cc1 (stereo not drawn) as the molecule, how does the inhibition read?
Answer: The inhibition was inactive: -2.99%.

Question: Cc1ccc(NP(C)(=O)Oc2ccccc2)c(C)c1 (stereo not drawn) was tested. Which inhibition did it give?
Answer: Its inhibition is inactive: -1.39%.

Question: How did the inhibition turn out when CCN(CC)CCCOC(=O)C(O)(c1ccccc1)c1ccccc1 was run?
Answer: The inhibition was inactive: 1.76%.

Question: Which inhibition does the source give for CCc1ccc(OP(C)(=O)N2CCN(c3ccc([N+](=O)[O-])cc3)CC2)cc1 (stereo not drawn) here?
Answer: Its inhibition is inactive: -7.36%.

Question: CP(=O)(NC(=O)Nc1ccccc1)Oc1ccccc1 (stereo not drawn) was tested. Which inhibition did it give?
Answer: The inhibition was inactive: 2.02%.

Question: With Cc1cc(C)cc(OP(C)(=O)Nc2ccc(SC(F)(F)F)cc2)c1 (stereo not drawn) as the molecule, how does the inhibition read?
Answer: Its inhibition is inactive: -3.02%.

Question: With CP(=O)(Nc1ccc(SC(F)(F)F)cc1)Oc1ccc(Cl)cc1 (stereo not drawn) as the molecule, how does the inhibition read?
Answer: The inhibition was inactive: 1.81%.

Question: How did the inhibition turn out when Cc1cccc(C)c1OP(C)(=O)Nc1ccc(SC(F)(F)F)cc1 (stereo not drawn) was run?
Answer: The inhibition was inactive: -0.06%.

Question: How did the inhibition turn out when CP(=O)(Oc1ccccc1)OC(c1ccccc1)C(F)(F)F (stereo not drawn) was run?
Answer: The inhibition was inactive: 0.42%.

Question: For CP(=O)(Nc1ccccn1)Oc1ccc(Cl)cc1 (stereo not drawn), which inhibition is on record?
Answer: Its inhibition is inactive: -1.71%.

Question: For CCOP(C)(=S)SCC(=O)NC(C)C(=O)O (stereo not drawn), which inhibition is on record?
Answer: The inhibition was inactive: -10.7%.

Question: CCOC(=O)c1ccc(NP(C)(=O)Oc2ccc(OC)cc2)cc1 (stereo not drawn) was tested. Which inhibition did it give?
Answer: Its inhibition is inactive: 1.21%.

Question: How did the inhibition turn out when COc1ccccc1OP(C)(=O)Nc1ccccc1 (stereo not drawn) was run?
Answer: Its inhibition is inactive: -3.87%.

Question: With CP(=O)(Nc1ccccc1Br)Oc1ccccc1 (stereo not drawn) as the molecule, how does the inhibition read?
Answer: The inhibition was inactive: 4.46%.

Question: How did the inhibition turn out when CP(=S)(Nn1cnnc1)Oc1ccccc1 (stereo not drawn) was run?
Answer: The inhibition was active: 40.9%.
